Measured values taken from patent US20240269228A1 (priority 2021, published 2024).
Only a part of the results on these compounds is given; other tests are left out.

Sequences of proteins named here, by UniProt entry; tags and fusion partners are left off. Residues count along the entry.
UniProt Q9GZZ6, 25-450 limits assumed: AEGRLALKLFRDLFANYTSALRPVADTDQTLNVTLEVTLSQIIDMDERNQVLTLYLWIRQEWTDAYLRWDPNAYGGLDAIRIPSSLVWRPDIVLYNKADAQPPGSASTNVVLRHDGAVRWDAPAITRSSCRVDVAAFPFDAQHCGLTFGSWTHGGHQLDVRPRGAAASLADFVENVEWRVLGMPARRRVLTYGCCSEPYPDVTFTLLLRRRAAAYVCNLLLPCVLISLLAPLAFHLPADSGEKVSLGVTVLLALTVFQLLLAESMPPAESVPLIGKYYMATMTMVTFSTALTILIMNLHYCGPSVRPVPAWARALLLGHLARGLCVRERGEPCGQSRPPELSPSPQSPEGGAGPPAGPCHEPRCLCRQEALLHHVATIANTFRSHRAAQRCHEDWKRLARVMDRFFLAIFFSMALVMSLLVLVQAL
UniProt Q9UGM1, 26-479 limits assumed: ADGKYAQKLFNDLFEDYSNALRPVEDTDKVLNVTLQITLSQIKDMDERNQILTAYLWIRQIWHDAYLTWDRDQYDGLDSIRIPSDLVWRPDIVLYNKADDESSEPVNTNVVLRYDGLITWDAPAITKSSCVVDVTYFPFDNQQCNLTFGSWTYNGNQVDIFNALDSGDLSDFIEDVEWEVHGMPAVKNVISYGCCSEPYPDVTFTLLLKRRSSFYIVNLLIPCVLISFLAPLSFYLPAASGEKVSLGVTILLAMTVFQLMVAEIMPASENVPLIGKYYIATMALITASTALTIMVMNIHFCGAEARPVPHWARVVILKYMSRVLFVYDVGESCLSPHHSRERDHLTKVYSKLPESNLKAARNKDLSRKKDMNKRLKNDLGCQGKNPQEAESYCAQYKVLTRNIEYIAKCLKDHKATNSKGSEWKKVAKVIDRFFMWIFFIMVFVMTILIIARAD

The compounds below were run against human α9α10 nAChR (Homo sapiens, UniProt Q9GZZ6+Q9UGM1) (assay: Two-electrode voltage clamp, Xenopus oocytes expressing the receptor). Conditions: h α9α10.
`C[C@@H](O)[C@@H]1NC(=O)[C@H]2NC(=O)[C@@H](NC(=O)CN)CSSC[C@H](NC(=O)[C@H](CCCNC(=N)N)NC(=O)[C@@H]3CCCN3C(=O)[C@H](CC(=O)O)NC1=O)C(=O)N[C@@H](CCCNC(=N)N)C(=O)N[C@@H](Cc1ccc(O)c(I)c1)C(=O)N[C@@H](CCC(N)=O)C(=O)N[C@H](C(=O)N[C@H](CC(=O)N[C@@H](CCC(=O)O)C(=O)O)Cc1ccc(O)cc1)CSSC2(C)C` gave a Hill slope values of 0.82 ± 0.3. In the case of `C[C@@H](O)[C@@H]1NC(=O)[C@H]2NC(=O)[C@@H](NC(=O)CN)CSSC[C@H](NC(=O)[C@H](CCCNC(=N)N)NC(=O)[C@@H]3CCCN3C(=O)[C@H](CC(=O)O)NC1=O)C(=O)N[C@@H](CCCNC(=N)N)C(=O)N[C@@H](Cc1ccc(O)c(I)c1)C(=O)N[C@@H](CCC(N)=O)C(=O)N[C@H](C(=O)N[C@H](CC(=O)N[C@@H](CCCN)C(=O)O)Cc1ccc(O)cc1)CSSC2(C)C`, the Hill slope values is reported as 0.82 ± 0.2. `C[C@@H](O)[C@@H]1NC(=O)[C@@H]2CSSC[C@@H](C(=O)N[C@@H](Cc3ccc(O)cc3)C(=O)O)NC(=O)[C@H](CCC(N)=O)NC(=O)[C@H](Cc3ccc(O)c(I)c3)NC(=O)[C@H](CCCNC(N)=O)NC(=O)[C@H](CSSC(C)(C)[C@H](NC(=O)CN)C(=O)N2)NC(=O)[C@H](CCCNC(=N)N)NC(=O)[C@@H]2CCCN2C(=O)[C@H](CC(=O)O)NC1=O` was tested, and the Hill slope values was 0.5 ± 0.1. In the case of `C[C@@H](O)[C@@H]1NC(=O)[C@H]2NC(=O)[C@@H](NC(=O)CN)CSSC[C@H](NC(=O)[C@H](CCCNC(=N)N)NC(=O)[C@@H]3CCCN3C(=O)[C@H](CC(=O)O)NC1=O)C(=O)N[C@@H](CCCNC(=N)N)C(=O)N[C@@H](Cc1ccc(O)c(I)c1)C(=O)N[C@@H](CCC(N)=O)C(=O)N[C@H](C(=O)N[C@@H](Cc1ccc(O)cc1)C(=O)N[C@@H](CCCNC(=N)N)C(=O)O)CSSC2(C)C`, the Hill slope values is reported as 1.1 ± 0.2. Work on `C[C@@H](O)[C@@H]1NC(=O)[C@H]2NC(=O)[C@@H](NC(=O)CN)CSSC[C@H](NC(=O)[C@H](CCCNC(=N)N)NC(=O)[C@@H]3CCCN3C(=O)[C@H](CC(=O)O)NC1=O)C(=O)N[C@@H](CCCNC(=N)N)C(=O)N[C@@H](Cc1ccc(O)c(I)c1)C(=O)N[C@@H](CCC(N)=O)C(=O)N[C@H](C(=O)N[C@H](CC(=O)N[C@H](CCCNC(=N)N)C(=O)O)Cc1ccc(O)cc1)CSSC2(C)C` yielded a Hill slope values of 0.83 ± 0.08. `C[C@@H](O)[C@@H]1NC(=O)[C@H]2NC(=O)[C@@H](NC(=O)CN)CSSC[C@H](NC(=O)[C@H](CCCNC(=N)N)NC(=O)[C@@H]3CCCN3C(=O)[C@H](CC(=O)O)NC1=O)C(=O)N[C@@H](CCCNC(=N)N)C(=O)N[C@@H](Cc1ccc(O)c(I)c1)C(=O)N[C@@H](CCC(N)=O)C(=O)N[C@H](C(=O)N[C@H](CC(=O)N[C@@H](CCCCN)C(=O)O)Cc1ccc(O)cc1)CSSC2(C)C` gave a Hill slope values of 0.81 ± 0.1.
